Measured values from several laboratories, pooled; numbers as filed in NIAID ChemDB.

All rows: tests in culture; species: Candida albicans; measure: MIC

a–b is a range or a potency band. An empty or dashed field is not shown. Lines come from different laboratories, so protocols vary.

smiles | strain or isolate | method | result
Cc1ncc([N+](=O)[O-])n1CCN1C(=O)/C(=C/c2c(Cl)cccc2Cl)N=C1c1ccccc1 | - | - | 250 µg/mL
COc1ccc(C2=NN(Cc3n[nH]c(=S)n3-c3ccc(Br)cc3)C(=O)CC2)cc1 | - | - | 10 µg/mL
CCC(C)CC(C)CCCCCCCCC(=O)N[C@H]1C[C@@H](O)[C@H](NCCN)NC(=O)[C@@H]2[C@@H](O)CCN2C(=O)[C@H]([C@H](O)CCN)NC(=O)[C@H]([C@H](O)[C@@H](O)c2ccc(O)cc2)NC(=O)[C@@H]2C[C@@H](O)CN2C(=O)[C@H]([C@@H](C)O)NC1=O | T25 | - | 2 µg/mL
Clc1ccc(CN(Cc2ccc(-c3ccccc3)cc2)n2ccnc2)c(Cl)c1 | - | - | 2.5 µM
O=C(Nc1cccc([N+](=O)[O-])c1)c1ncccc1O | ATCC 44859 | - | >250 µM
Cc1ccc(C(Cc2ccc([N+](=O)[O-])cc2)n2ccnc2)s1 | - | - | 150 µM
CC(C)([C@](O)(Cn1cncn1)c1ccc(C(F)(F)F)cc1)S(C)(=O)=O | 30 strains | - | 0.5–4 µg/mL
Clc1ccc(CC(c2ccc(Cl)s2)n2ccnc2)c(Cl)c1 | - | - | 18 µM
O=c1c2sc3c(=O)n(Cc4ccccc4)c(=O)c3sc2c(=O)n1Cc1ccccc1 | ATCC 90028 | - | 3.2 µg/mL
c1ccc(CN(Cc2ccc(-c3ccccc3)cc2)n2ccnc2)cc1 | - | - | 200 µM
O=C(Nc1cccc(Cl)c1)c1ncccc1O | ATCC 44859 | - | 62.5 µM
CC(C)=CCc1c(O)c(C)c(O)c2c1O[C@H](c1ccc(O)cc1)CC2=O | - | - | >100 µg/mL
COc1ccc(-c2cc(-c3ccc(C)cc3)nc(NC(=O)CN3CCOCC3)n2)cc1 | - | - | 200 µg/mL
COc1cc(O)c2c(c1)C(=O)c1c(cc3c(c1O)-c1c(cc(C)c(C(=O)N[C@H](C)C(=O)O)c1O)[C@H](O[C@@H]1O[C@H](C)[C@H](O)[C@H](O[C@@H]4OC[C@@H](O)[C@H](O)[C@H]4O)[C@H]1O)[C@H]3O)C2=O | 5 isolates | - | 2.5–10 µg/mL
O=C(Nc1ccccc1)c1ccccc1O | ATCC 44859 | - | 250 µM
CC1(C)O[C@H]2O[C@H](C3=NOC(CO)C3)[C@H](OCc3ccccc3)[C@H]2O1 | - | - | >50 µg/mL
CCC(C)CC(C)CCCCCCCCC(=O)N[C@H]1C[C@@H](O)[C@@H](O)NC(=O)[C@@H]2[C@@H](O)CCN2C(=O)[C@H]([C@H](O)CC(N)=O)NC(=O)[C@H]([C@H](O)[C@@H](O)c2ccc(O)cc2)NC(=O)[C@@H]2C[C@@H](O)CN2C(=O)[C@H]([C@@H](C)O)NC1=O | 40 isolates | - | 32 µg/mL
Cc1ncc([N+](=O)[O-])n1CCn1c(-c2ccc(CCl)cc2)csc1=Nc1ccccc1 | - | - | 250 µg/mL
Nc1ccc(CC(c2cccs2)n2ccnc2)cc1 | - | - | 300 µM
O=C(Nc1cccc(Cl)c1)c1ccccc1O | ATCC 44859 | - | 31.25 µM
CC[C@@H]1[C@@H](Cn2cncn2)[C@H](COc2ccc(OC(F)(F)F)cc2)CC[C@@]1(C)CCN1CCOCC1 | CY3003 | - | 0.03 µg/mL
COc1ccccc1CN(Cc1ccc(-c2ccccc2)cc1)n1ccnc1 | - | - | 33 µM
O=[N+]([O-])c1ccc(CC(c2cccs2)n2ccnc2)cc1 | - | - | 150 µM
CC(C)n1c(=O)c2sc3c(=O)n(C(C)C)c(=O)c3sc2c1=O | ATCC 90028 | - | 0.8 µg/mL
Cc1c(O)cccc1C(=O)N[C@@H](CSc1ccccc1)[C@H](O)CN1C[C@H]2CCCC[C@H]2C[C@H]1C(=O)NC(C)(C)C | I97 | - | >64 µg/mL
O=C(CSc1nnc(-c2ccncc2)n1Cc1ccccc1)c1ccccc1 | ATCC 10231 | - | 50 µg/mL
Cc1ccc(C(Cc2ccc(Cl)cc2Cl)n2ccnc2)s1 | - | - | 19 µM
O=C(Nc1ccc(F)cc1)c1ncccc1O | ATCC 44859 | - | 62.5 µM
Cc1ccc(NC(=S)NCCn2c([N+](=O)[O-])cnc2C)cc1 | - | - | 125 µg/mL
CCOC(=O)C1CC([C@H]2O[C@@H]3OC(C)(C)O[C@@H]3[C@H]3OC(C)(C)O[C@H]32)=NO1 | - | - | >50 µg/mL
Cc1ncc([N+](=O)[O-])n1CCNC(=S)Nc1ccc(Cl)cc1 | - | - | 250 µg/mL
O=C1CCC(c2ccc(Cl)cc2)=NN1Cc1n[nH]c(=S)n1-c1ccc(Cl)cc1 | - | - | 3 µg/mL
CCC(C)CC(C)CCCCCCCCC(=O)N[C@H]1C[C@@H](O)[C@@H](OCCN)NC(=O)[C@@H]2C[C@@H](O)CN2C(=O)[C@H]([C@H](O)CCN)NC(=O)[C@H]([C@H](O)[C@@H](O)c2ccc(O)cc2)NC(=O)[C@@H]2C[C@@H](O)CN2C(=O)[C@H]([C@@H](C)O)NC1=O | 40 isolates | - | 64 µg/mL
O=C1CCC(c2ccc(Br)cc2)=NN1Cc1n[nH]c(=S)n1-c1ccccc1 | - | - | 8 µg/mL
CC[C@@H](C)n1ncn(-c2ccc(N3CCN(c4ccc(OC[C@H]5CO[C@](Cn6cncn6)(c6ccc(F)cc6F)C5)cc4)CC3)cc2)c1=O | C-43 | - | 0.0313 µg/mL
Nc1ccc(CC(c2ccc(Cl)s2)n2ccnc2)cc1 | - | - | 9.4 µM
COc1ccc(C[C@H](N)C(=O)N[C@H]2[C@@H](O)[C@H](n3cnc4c(N)ncnc43)O[C@@H]2C(=O)O)cc1 | FP-623 | - | 1.6 µg/mL
CC[C@H](C)n1ncn(-c2ccc(N3CCN(c4ccc(OC[C@H]5CO[C@](Cn6cncn6)(c6ccc(F)cc6F)C5)cc4)CC3)cc2)c1=O | C-43 | - | 0.0625 µg/mL
O=C(NNC(=S)Nc1ccccc1)c1ccncc1 | ATCC 10231 | - | 50 µg/mL
Fc1ccc(CN(CCn2cncn2)CCn2cncn2)c(F)c1 | - | visual reading / absorbance | 64 µg/mL
C[C@H]1[C@H](O)[C@@H](C)/C=C/C=C/C=C/C=C/C=C/C=C/C=C/[C@H](O[C@@H]2O[C@H](C)[C@@H](O)[C@H](N)[C@@H]2O)C[C@@H]2O[C@](O)(C[C@@H](O)C[C@@H](O)CC[C@H](O)[C@@H](O)C[C@@H](O)CC(=O)O[C@H]1C)C[C@H](O)[C@H]2C(=O)O | - | broth dilution | 25 µg/mL
CCCn1c(=O)c2sc3c(=O)n(CCC)c(=O)c3sc2c1=O | ATCC 90028 | - | <0.1 µg/mL
O=C(Nc1ccc(C(F)(F)F)cc1)c1ccccc1O | ATCC 44859 | - | >125 µM
Cc1ccc(C2=NN(Cc3n[nH]c(=S)n3-c3ccc(Br)cc3)C(=O)CC2)cc1 | - | - | 10 µg/mL
CCn1c(-c2ccncc2)n[nH]c1=S | ATCC 10231 | - | 50 µg/mL
OC(Cn1cncn1)(Cn1cncn1)c1ccc(F)cc1F | IFO 1594 | - | 3.13 µg/mL
Cc1ncc([N+](=O)[O-])n1CCNC(=S)Nc1ccccc1 | - | - | 62.5 µg/mL
Clc1ccc(CN(Cc2ccc(-c3ccccc3)cc2)n2ccnc2)c(Cl)c1 | - | - | 6.2 µM
Cc1ncc([N+](=O)[O-])n1CCN1C(=O)/C(=C/c2ccc(Cl)cc2)N=C1c1ccccc1 | - | - | 250 µg/mL
CO[C@@H]1[C@H]2OC(C)(C)O[C@H]2O[C@@H]1C1=NOC(C#N)C1 | - | - | >50 µg/mL